Data from PubChem BioAssay AID504592 (Broad Institute, 2011).
The entries are a selection whose mix differs from that of the whole data set. Inconclusive results are not listed. Calls of active or inactive are those of the source. Rule as the data show it: active = inhibition above about 54%; inconclusive = no clear call, values can overlap the other calls; inactive = below that.

Assay: prion 5' UTR mRNA inhibition, cherry-pick retest (AID 504592)
Settings: cell-based prion protein 5' UTR reporter, plate reader; at 2.5 µM; active compounds read high

SMILES	inhibition
O=P(Nc1ccccn1)(c1cccc2ccccc12)c1cccc2ccccc12	inactive: -14.5%
CN(C(=O)Cc1ccc(Cl)c(Cl)c1)[C@H]1CCCC[C@@H]1N1CCCC1	inactive: -18.7%
